Only a part is listed here, and it is no random draw.
Tests used:
[1] = test system: HeLa; assay: nuclear count per well, robust Z-score vs DMSO; higher = more cells (less toxicity); settings: 10 µM; 6 h
[2] = test system: HeLa; assay: MALAT1 nuclear FISH intensity, robust Z-score vs DMSO; higher = more nuclear MALAT1 lncRNA, active = -3 or less; settings: 10 µM; 6 h
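For MALAT1 nuclear FISH intensity, robust Z-score vs DMSO in this document: High-content confocal imaging of branched-DNA amplified FISH in 384-well plates, Hoechst-defined nuclei, score is well value minus plate DMSO median over DMSO robust SD, four wells per compound.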
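For nuclear count per well, robust Z-score vs DMSO in this document: Hoechst-stained nuclei counted by automated confocal imaging of four fields per well in 384-well plates, with the robust Z-score based on the per-plate DMSO median and robust SD.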

Q: What does the source list for COc1ccc(C=C(C#N)C#N)cc1 [Tyrphostin 1]?
A: nuclear count per well [1]: -0.159; MALAT1 nuclear FISH intensity [2]: inactive: -1.73
